Laboratory results taken from PMC6200926, “Complementary recognition of the receptor-binding site of highly pathogenic H5N1 influenza viruses by two human neutralizing antibodies” (2018).

Biological target: FLD21.140 (full-length human IgG1) (human)
Test: BLI

A/Anhui/1/2005 H5N1 HA globular head (D55-E271), wild type (domain or fragment)
Kd: 8.9 µM
